Pooled drug test results. Numbers come from NIAID ChemDB, via PubChem.

Shared fields: whole-cell or culture tests; agent: HIV-2; strain: ROD; read by: MTT; measure: EC50

ECn: concentration that inhibits the pathogen or its effect by n%.

compound | cells | result
Brc1ccc(-c2csc(N/N=C/c3cccnc3)n2)cc1 | MT-4 | >23.39 µM
CC(CS)C(=O)N1CCC[C@@H]1C(=O)NCC(=O)N1CCN(c2nc3ccccc3s2)CC1 | MT-4 | >1.21 µg/mL
Clc1ccc(-c2nn3c(-c4ccc(Cl)c(Cl)c4)nnc3s2)cc1Cl | MT-4 | >67.8 µg/mL
C[C@H](CS)C(=O)N1CCC[C@@H]1c1nc2ncncc2[nH]1 | MT-4 | >59.05 µg/mL
Nn1cc(C(=O)O)c(=O)c2cc(O)c(N3CCN(c4cccc(C(F)(F)F)c4)CC3)cc21 | MT-4 | >20.96 µM
O=C1CSc2nnc(-c3ccc(Cl)c(Cl)c3)n2N1 | MT-4 | >35.23 µg/mL
C/C(=N\Nc1nc(-c2ccc(Cl)cc2)cs1)c1ccc2c(c1)OCO2 | MT-4 | >21.83 µM
CC(=O)N1N=C(C2CCC3C4CC=C5C[C@@H](O)CC[C@]5(C)C4CC[C@]23C)CC1c1ccc(Br)cc1 | MT-4 | >0.29 µM
Nc1ccc(-c2nnc3sc(-c4cc5ccccc5oc4=O)nn23)cc1 | MT-4 | >108.3 µg/mL
Cc1ccnc2c1NC(=O)c1cccnc1N2C1CC1 | MT-4 | >4 µg/mL
C=CCNc1c(N=Nc2ccc(-c3ccc(F)cc3)cc2)c(N)nc(=O)n1C | MT-2 | >10.42 µM
C[C@]12CCC3C(CC=C4CC(O)CC[C@@]43C)C1CCC2C1=NN(C(N)=S)C(c2ccc(Br)cc2)C1 | MT-4 | >11.78 µM
COc1ccc(-c2ccc(N=Nc3c(N)nc(=O)n(C)c3-c3ccc(OC)c(OC)c3)cc2)cc1OC | MT-4 | >1.63 µM
C[C@]12CCC3C(CC=C4C[C@@H](O)CC[C@@]43C)C1CCC2C(=O)/C=C/c1ccc(Br)cc1 | MT-4 | >13.3 µM
N#Cc1ccc(-c2csc(N/N=C/c3ccco3)n2)cc1 | MT-4 | >10.04 µM
Cn1cc(C(=O)O)c(=O)c2cc(N)c(N3CCN(c4ccccn4)CC3)cc21 | MT-4 | >0.25 µM
Oc1ccccc1/C=N/Nc1nc(-c2ccc(Br)cc2)cs1 | MT-4 | >48.7 µM
CC(C)=Nn1cc(C(=O)O)c(=O)c2cc(N)c(N3CCN(c4ccccn4)CC3)cc21 | MT-4 | >1.11 µM
CCOC(=O)c1ccc(-c2cc(N)nc(=O)n2C)cc1 | MT-4 | >75.23 µM
NC1=Nn2c(nnc2-c2ccc(Cl)c(Cl)c2)SC1 | MT-4 | >2.7 µg/mL
Nc1cc2c(=O)c(C(=O)O)csc2cc1N1CCN(c2ccccn2)CC1 | MT-4 | >138 µM
O=[N+]([O-])c1ccc(-c2csc(N/N=C/c3ccccn3)n2)cc1 | MT-4 | >17.3 µM
C[C@H](CSCC(N)=O)C(=O)N1CCC[C@@H]1C(=O)O | MT-4 | >3.12 µg/mL
Oc1ccc(-c2nnc3sc(-c4ccc(O)c(Cl)c4Cl)nn23)cc1Br | MT-4 | >4.12 µg/mL
C=CCNc1c(N=Nc2ccc(Cl)cc2)c(N)nc(=O)n1C | MT-4 | >14.23 µM
C(=N\Nc1nc(-c2ccccc2)cs1)/c1cccnc1 | MT-4 | >11.6 µM
Cc1ccc([C@H]2C[C@]23C(=O)N(C)c2ccccc23)cc1 | MT-4 | >0.39 µg/mL
Cn1c(-c2ccccc2F)cc(N)nc1=O | MT-4 | >13.27 µM
Brc1ccc(-c2csc(N/N=C/c3ccccn3)n2)cc1 | MT-4 | >2.71 µM
Cc1ccnc2c1NC(=O)c1cccnc1N2C1CC1 | MT-4 | >4 µM
C[C@H](CS)C(=O)N1CCC[C@@H]1c1nc2ncnc(N)c2[nH]1 | MT-4 | >24.7 µg/mL
Oc1ccc(-c2nnc3sc(-c4ccco4)nn23)c(Cl)c1Cl | MT-4 | >27.2 µg/mL

Repeating the first 2 entries:

compound	cells	result
Brc1ccc(-c2csc(N/N=C/c3cccnc3)n2)cc1	MT-4	>23.39 µM
CC(CS)C(=O)N1CCC[C@@H]1C(=O)NCC(=O)N1CCN(c2nc3ccccc3s2)CC1	MT-4	>1.21 µg/mL

Neighbouring rows are from separate reports.